Experiment [1] has as its system Fusarium graminearum. Put plainly: Antifungal activity against Fusarium graminearum F200Y containing site-directed mutant at codon 200 of beta2 tubulin assessed as inhibition of mycelial growth.
Experiment [2] relates to Fusarium graminearum. Put plainly: Antifungal activity against beta2 tubulin over-expressing Fusarium graminearum JOE assessed as inhibition of mycelial growth.
Experiment [3] concerns Fusarium graminearum. As to the kind of experiment: Antifungal activity against Fusarium graminearum JT04 assessed as inhibition of mycelial growth.
The subject of experiment [4] is Fusarium graminearum. Put plainly: Antifungal activity against wild type Fusarium graminearum 2021 assessed as inhibition of mycelial growth.
For experiment [5], the system named is Fusarium graminearum. Put plainly: Antifungal activity against beta1 tubulin deletion mutant Fusarium graminearum DB Y50C containing site-directed mutant at codon 50 of beta2 tubulin assessed as inhibition of mycelial growth.
In experiment [6] the test system is Fusarium graminearum. As to the kind of experiment: Antifungal activity against beta1 tubulin deletion mutant Fusarium graminearum DBF200Y containing site-directed mutant at codon 200 of beta2 tubulin assessed as inhibition of mycelial growth.
In experiment [7] the test system is Fusarium graminearum. Put plainly: Antifungal activity against beta1 tubulin deletion mutant Fusarium graminearum DB2-145 assessed as inhibition of mycelial growth.
Experiment [8] has as its system Fusarium graminearum. Put plainly: Antifungal activity against beta1 tubulin deletion mutant Fusarium graminearum DBE198K containing site-directed mutant at codon 198 of beta2 tubulin assessed as inhibition of mycelial growth.
The test system of experiment [9] is Fusarium graminearum. As to the kind of experiment: Antifungal activity against Fusarium graminearum Y50C containing site-directed mutant at codon 50 of beta2 tubulin assessed as inhibition of mycelial growth.
The test system of experiment [10] is Fusarium graminearum. As to the kind of experiment: Antifungal activity against Fusarium graminearum E198K containing site-directed mutant at codon 198 of beta2 tubulin assessed as inhibition of mycelial growth.
In experiment [11] the test system is Fusarium graminearum. As to the kind of experiment: Antifungal activity against Fusarium graminearum F167Y containing site-directed mutant at codon 167 of beta2 tubulin assessed as inhibition of mycelial growth.
Experiment [12] deals with Fusarium graminearum. Put plainly: Antifungal activity against beta1 tubulin deletion mutant Fusarium graminearum DBF167Y containing site-directed mutant at codon 167 of beta2 tubulin assessed as inhibition of mycelial growth.
Experiment [13] relates to Fusarium graminearum. Put plainly: Antifungal activity against beta2 tubulin deletion mutant Fusarium graminearum DN83 assessed as inhibition of mycelial growth.
For experiment [14], the system named is Fusarium graminearum. As to the kind of experiment: Antifungal activity against beta2 tubulin over-expressing Fusarium graminearum 2OE assessed as inhibition of mycelial growth.

In brackets after ≈: the same amount, converted by molar mass. Where only a bound is given, the exact number is not on record here.

As usually defined, the MIC is the least concentration at which growth counts as inhibited. The term EC50 denotes the midpoint of the concentration-response curve.

In the case of `COC(=O)Nc1nc2ccccc2[nH]1` [CARBENDAZIM], the minimum inhibitory concentration (MIC) was 50 µg/mL (≈ 262 µM) in the experiment with Fusarium graminearum [1]; 1.4 µg/mL (≈ 7.32 µM) in the experiment with Fusarium graminearum [4]; 50 µg/mL (≈ 262 µM) with Fusarium graminearum [5]; over 100 µg/mL in the experiment with Fusarium graminearum [6]; 1.4 µg/mL (≈ 7.32 µM) in the experiment with Fusarium graminearum [7]; 20 µg/mL (≈ 105 µM) in the experiment on Fusarium graminearum [9]. For the same compound, the minimum inhibitory concentration (MIC) in the experiment with Fusarium graminearum [10] stood at 100 µg/mL (≈ 523 µM); in the experiment on Fusarium graminearum [11], 50 µg/mL (≈ 262 µM); in the experiment on Fusarium graminearum [12] it was 100 µg/mL (≈ 523 µM); in the experiment on Fusarium graminearum [13], 1 µg/mL (≈ 5.23 µM); with Fusarium graminearum [14] it was 1.4 µg/mL (≈ 7.32 µM). Moreover, the EC50 was 14.1 µg/mL (≈ 73.9 µM) with Fusarium graminearum [2]; 4.51 µg/mL (≈ 23.6 µM) in the experiment on Fusarium graminearum [3]; 9.72 µg/mL (≈ 50.8 µM) in the experiment on Fusarium graminearum [5]; 0.68 µg/mL (≈ 3.56 µM) in the experiment on Fusarium graminearum [7]; 10.2 µg/mL (≈ 53.1 µM) in the experiment on Fusarium graminearum [8]; 25.2 µg/mL (≈ 132 µM) in the experiment on Fusarium graminearum [12]. Also, the EC50 in the experiment on Fusarium graminearum [13] worked out at 0.1 µg/mL (≈ 0.523 µM); in the experiment on Fusarium graminearum [14] it was 0.64 µg/mL (≈ 3.35 µM).
